From US20220033460A1 (published 2022) come the findings set out here.

The target of this assay is DRB1*15:01. Nature of the assay: competitive fluorescence polarization.

In turn, KRISNCYADYSVLYN [KRISNCYADYSVLYN (position 356)] had an IC50 of 623 nM.
